Pooled drug test results. Numbers come from NIAID ChemDB, via PubChem.

Shared fields: whole-cell or culture tests; agent: HIV-1

Conditions beyond the fields shown may differ between rows.

compound	method	mutations	setting	read-out	cells	strain or isolate	value
Cc1ccc(-c2ccc(NC(=O)N3CCC4(CCO4)CC3)cc2)cc1	luminescence		pseudotyped	EC50	TZM-bl	CNE55	>30 µM
CC(=O)N1CCOCC1Cn1c(=O)c(O)c2n(c1=O)CCN(Cc1ccc(F)cc1)C2=O	p24			EC95	MT-4		<10 µM
O=C(COc1ccc(Cl)cc1C(=O)c1ccccc1)Nc1ccc2cn[nH]c2c1	β-galactosidase	RT-Y181C		EC50	HeLa + HELA CD4+	HXB2	0.011–0.1 µM
C=CCCN(C(=O)[C@H](Cc1cc(F)cc(F)c1)NC(=O)NS(=O)(=O)N[C@@H](Cc1cc(F)cc(F)c1)C(=O)N(CCC=C)c1ccc(OC)cc1)c1ccc(OC)cc1	luciferase			EC50	MT-2	NL4-3	0.73 µM
Cc1cc(C#N)cc(C(=O)c2cc(Cl)ccc2OCC(=O)Nc2ccc(S(N)(=O)=O)nc2C)c1	β-galactosidase	RT-K103N Y181C		EC50	HeLa + HELA CD4+	HXB2 (RT-K103N Y181C) Recombinant	<0.01 µM
Cc1occc1C(=S)Nc1ccc(Cl)c(OCC=C(Cl)Cl)c1	syncytia	RT-V106A		EC50	CEM	Nevirapine-resistant isolate (RT V106A)	0.055 µg/mL
COc1ccc(N(C)C(=O)[C@H](Cc2cc(F)cc(F)c2)NC(=O)Cn2c(=O)c(=O)n(CC(=O)N[C@@H](Cc3cc(F)cc(F)c3)C(=O)N(C)c3ccc(OC)cc3)c3ccccc32)cc1	luciferase			EC50	MT-2	NL4-3	0.03 µM
CC(C)CN(C[C@@H](O)[C@H](Cc1ccccc1)NC(=O)OC(C)(C)C)S(=O)(=O)c1ccccc1F	p24			EC50	CEM	IIIB	<10 µM
CC1(C)CC(n2c(=O)c(O)c3n(c2=O)CCN(Cc2ccc(F)cc2)C3=O)CCO1	p24			EC95	MT-4		<10 µM
COc1cc(-c2ccc(N=Nc3ccc4c(S(=O)(=O)O)cc(S(=O)(=O)O)c(N)c4c3O)c(OC)c2)ccc1N=Nc1ccc2c(S(=O)(=O)O)cc(S(=O)(=O)O)c(N)c2c1O	cytopathic effect / XTT			EC50	CEM + CEM-SS	C	0.7 µM
CC(C)CN(C[C@@H](O)[C@H](Cc1ccccc1)NC(=O)O[C@H]1CCOC1)S(=O)(=O)c1ccc(F)cc1	p24			EC50	CEM	IIIB	<1 µM
COc1ccccc1C(=C1CCN(C(=O)C(=O)c2c[nH]c3c(OC)ncc(OC)c23)CC1)c1ccccc1	luciferase			EC50	HeLa		<1 µM
CC(C)CN(C[C@@H](O)[C@H](Cc1ccccc1)NC(=O)[C@H](CC(N)=O)NC(=O)c1ccc2ccccc2n1)S(=O)(=O)c1cccc2nonc12	p24			EC90	CEM	IIIB	≤0.1 µM
O=C1c2c(O)c(=O)n(C(C3CC3)C3CC3)c(=O)n2CCN1Cc1ccc(F)cc1	p24			EC50	MT-4		<10 µM
C=C(Cl)COc1cc(NC(=S)c2ccoc2C)ccc1C	syncytia	RT-K103N		EC50	CEM	TIBO R82913-resistant (RT K103N)	0.75 µg/mL
COc1ccc(N(C)C(=O)[C@H](Cc2cc(F)cc(F)c2)NC(=O)NS(=O)(=O)N[C@@H](Cc2cc(F)cc(F)c2)C(=O)N(C)c2ccc(OC)cc2)cc1	luciferase			EC50	MT-2	NL4-3	0.01 µM
Cc1cc(S(N)(=O)=O)ccc1NC(=O)COc1ccc(Cl)cc1C(=O)c1cc(C#N)cc(C#N)c1	β-galactosidase	RT-V106A		EC50	HeLa + HELA CD4+	HXB2	<0.01 µM
Clc1cc(CN2CCCNCCNCCCNCC2)cc(Cl)n1	p24			EC50	U87-CD4-CCR5 + U87	BAL R5	17.6 µM
Cc1cc2[nH]cnc2cc1NC(=O)COc1ccc(Cl)cc1C(=O)c1cc(F)cc(C(F)(F)F)c1	β-galactosidase	RT-K103N		EC50	HeLa + HELA CD4+	HXB2	<0.01 µM
COc1ccc(N(C)C(=O)[C@H](Cc2cc(F)cc(F)c2)NC(=O)Cn2c(=O)n(CC(=O)N[C@@H](Cc3cc(F)cc(F)c3)C(=O)N(C)c3ccc(OC)cc3)c3cc(Cl)ccc32)cc1	luciferase			EC50	MT-2	NL4-3	0.04 µM
CCCc1cc(=O)oc2c3c(c4c(c12)OC(C)(C)CC4)O[C@H](C)[C@@H](C)C3=O	cytopathic effect / XTT			EC50	CEM + CEM-SS	SK1	0.62 µM
COc1ccc(N(C)C(=O)[C@H](Cc2ccccc2)NC(=O)c2cc(Br)cc(C(=O)N[C@@H](Cc3ccccc3)C(=O)N(C)c3ccc(OC)cc3)c2)cc1	luciferase			EC50	MT-2	NL4-3	0.21 µM
Cc1cc(S(N)(=O)=O)ccc1NC(=O)COc1ccc(Cl)cc1C(=O)c1cccc(C#N)c1	β-galactosidase	RT-K103N V108I		EC50	HeLa + HELA CD4+	HXB2	<0.01 µM
CC(C)=CCOc1cc(NC(=S)c2ccsc2C)ccc1Cl	cytopathic effect / XTT			EC50	PBMC	WEJO	0.007 µM
C=CCOC(=O)N[C@@H](Cc1ccccc1)[C@H](O)CN(CC1CCCC1)S(=O)(=O)c1ccc(OC)cc1	p24			EC50	CEM	IIIB	<1 µM
COc1cccc(C(=C2CCN(C(=O)C(=O)c3c[nH]c4c(OC)ncc(OC)c34)CC2)c2ccccc2)c1	luciferase			EC50	HeLa		<1 µM
Cc1ccc(S(=O)(=O)N(CC(C)C)C[C@@H](O)[C@H](Cc2ccccc2)NC(=O)O[C@@H]2CCOC2)cc1	p24			EC50	CEM	IIIB	<1 µM
COc1cnc(Cl)c2[nH]cc(C(=O)C(=O)N3CCC(=C(C#N)c4cccnc4)CC3)c12	luciferase			EC50	HeLa		<1 µM
Cc1ccc(-c2ccc3c(c2)C=C(C(=O)Nc2ccc(C[N+](C)(C)C4CCOCC4)cc2)CCC3)cc1	p24			EC50	PBMC	Du301 CLADE C	<1 µM
COc1ccc(NC(=S)C2=C(C)OCCS2)cc1OCC=C(Cl)Cl	syncytia	RT-V106A		EC50	CEM	Nevirapine-resistant isolate (RT V106A)	2 µg/mL
CCc1cc(C#N)cc(C(=O)c2cc(Cl)ccc2OCC(=O)Nc2ccc(S(N)(=O)=O)cc2C)c1	β-galactosidase	RT-K103N G190A		EC50	HeLa + HELA CD4+	HXB2 (RT-K103N G190A) Recombinant	<0.01 µM
COc1ccc(N(C)C(=O)[C@H](Cc2ccccc2)NC(=O)NS(=O)(=O)N[C@@H](Cc2ccccc2)C(=O)N(C)c2cc(OC)c(OC)c(OC)c2)cc1	luciferase			EC50	MT-2	NL4-3	12.25 µM
CC(C)=CCOc1cc(NC(=S)c2ccoc2C)ccc1Cl	cytopathic effect / XTT	RT-Y181C		EC50	CEM + CEM-SS	UC040-R (RT-Y181C)	1 µM
COc1cnc(-n2ccnn2)c2[nH]cc(C(=O)C(=O)N3CCC(=C(c4ccccc4)c4cnn(C)c4)CC3)c12	luciferase			EC50	HeLa		<1 µM
Cc1cc(S(N)(=O)=O)ccc1NC(=O)COc1ccc(Cl)cc1C(=O)c1cc(Cl)cc(C#N)c1	β-galactosidase	RT-P225H		EC50	HeLa + HELA CD4+	HXB2	<0.01 µM
Cc1occc1C(=O)Nc1ccc(Cl)c(SCC=C(Cl)Cl)c1	syncytia	RT-Y188H		EC50	CEM	HEPT-resistant (RT Y188H)	2 µg/mL
COc1cnc(-n2ccnn2)c2[nH]cc(C(=O)C(=O)N3CCC(=C(c4ccccc4)c4nnco4)CC3)c12	luciferase			EC50	HeLa		<1 µM
Cc1ccc(N(C)C(=O)[C@H](Cc2cc(F)cc(F)c2)NC(=O)NS(=O)(=O)N[C@@H](Cc2cc(F)cc(F)c2)C(=O)N(C)c2ccc(C)nc2)cn1	luciferase			EC50	MT-2	NL4-3	0.58 µM
CC(C)c1c(Cc2ccccc2)n(COCc2ccccc2)c(=O)[nH]c1=O	p24 / ELISA			EC50	TZM-bl	SF33	0.022 µM
CC(C)CN(C[C@@H](O)[C@H](Cc1ccccc1)NC(=O)O[C@H]1CCOC1)S(=O)(=O)c1cccc(Cl)c1	p24			EC50	CEM	IIIB	<1 µM
Cc1cc(OCCCS(N)(=O)=O)ccc1NC(=O)COc1ccc(Cl)cc1C(=O)c1cc(F)cc(C(F)(F)F)c1	β-galactosidase	RT-G190A		EC50	HeLa + HELA CD4+	HXB2	<0.01 µM
CCOC(=O)c1ccc(-c2ncc(OC)c3c(C(=O)C(=O)N4CCC(=C(C#N)c5ccccc5)CC4)c[nH]c23)cc1	luciferase			EC50	HeLa		<1 µM
COc1ccc(S(=O)(=O)N(CC2CCCC2)C[C@@H](O)[C@H](Cc2ccccc2)NC(=O)OCc2cccnc2)cc1	p24			EC90	CEM	IIIB	≤0.1 µM
O=C1c2c(O)c(=O)n(C3CCS(=O)(=O)CC3)c(=O)n2CCN1Cc1ccc(F)cc1	p24			EC50	MT-4		<10 µM
CN(C(=O)[C@H](Cc1cc(F)cc(F)c1)NC(=O)NS(=O)(=O)N[C@@H](Cc1cc(F)cc(F)c1)C(=O)N(C)c1ccc(C2CC2)nc1)c1ccc(C2CC2)nc1	luciferase			EC50	MT-2	NL4-3	0.02 µM
COc1ccc(NC(=S)c2ccoc2C)cc1OCC=C(Cl)Cl	syncytia	RT-Y181C		EC50	CEM	Pyridone-resistant (RT Y181C)	0.25 µg/mL
Cc1cc(C#N)cc(C(=O)c2cc(Cl)ccc2OCC(=O)Nc2ccc(OCCCN3CC=CC3)cc2C)c1	β-galactosidase			EC50	HeLa + HELA CD4+	WTRVA	<0.01 µM
COc1cnc(-n2cnc(C)n2)c2[nH]cc(C(=O)C(=O)N3CCC(=C(c4ccccc4)c4cnn(Cc5ccccc5)c4)CC3)c12	luciferase			EC50	HeLa		<1 µM
Cc1ccc(C)n1-c1ccc(C(=O)O)c(O)c1	luciferase / cell fusion			EC90	PBMC/5.25M7	92UG092 X4 CLADE A	29.03 µM

3 of the rows above, restated:

Cc1cc2[nH]cnc2cc1NC(=O)COc1ccc(Cl)cc1C(=O)c1cc(F)cc(C(F)(F)F)c1 ; method: β-galactosidase ; mutations: RT-K103N ; read-out: EC50 ; cells: HeLa + HELA CD4+ ; strain or isolate: HXB2 ; value: <0.01 µM
Cc1occc1C(=S)Nc1ccc(Cl)c(OCC=C(Cl)Cl)c1 ; method: syncytia ; mutations: RT-V106A ; read-out: EC50 ; cells: CEM ; strain or isolate: Nevirapine-resistant isolate (RT V106A) ; value: 0.055 µg/mL
CC(C)c1c(Cc2ccccc2)n(COCc2ccccc2)c(=O)[nH]c1=O ; method: p24 / ELISA ; read-out: EC50 ; cells: TZM-bl ; strain or isolate: SF33 ; value: 0.022 µM

ECn: concentration that inhibits the pathogen or its effect by n%. Two numbers with a dash give a range or band. An empty or dashed field is not shown.